Where “and” joins values, the source holds several entries; their conditions need not be identical. Equal values may be shown once.
Assays:
BgNav1 = experiment: Two-electrode voltage clamp, BgNav1 expressed in Xenopus laevis oocytes; type: cell-based, Blattella germanica; design: key to effect on BgNav: “+” means tested and produced effect; “–“ means tested but no effect
Artemia salina = conditions: in vivo, nauplii dead or immobilized after 24 h in the dark, triplicates; highest tested concentration 60 μM
rNaV1.3 = biological target: T1, rNaV1.3 (Rattus norvegicus, UniProt P08104); experiment: Two-electrode voltage clamp, Nav1.3 in Xenopus laevis oocytes; type: cell-based; design: key to effect on Nav1.3: “+” means tested and produced effect; “–“ means tested but no effect; conditions: S12A at 5 μM; Xenopus oocytes, n ≥ 3
T1 construct: expressed in transfected cells; host or cells: Xenopus laevis oocytes (cRNA injection)

rNaV1.2 = biological target: T2, rNaV1.2 (Rattus norvegicus, UniProt P04775); experiment: Two-electrode voltage clamp, Nav1.2 in Xenopus laevis oocytes; type: cell-based; design: key: “+” means tested and produced effect; “–“ means tested but no effect; conditions: S12A at 5 μM, n ≥ 3
T2 construct: expressed in transfected cells; host or cells: Xenopus laevis oocytes (cRNA injection)

hNav1.7 = biological target: T3, hNav1.7 (Homo sapiens, UniProt Q15858); experiment: Two-electrode voltage clamp, Nav1.7 in Xenopus laevis oocytes; type: cell-based; design: key to effect on Nav1.7: “+” means tested and produced effect; “–“ means tested but no effect; conditions: S12A at 5 μM; Xenopus oocytes, n ≥ 3
T3 construct: expressed in transfected cells; host or cells: Xenopus laevis oocytes (cRNA injection)

rNaV1.4 = biological target: T4, rNaV1.4 (Rattus norvegicus, UniProt P15390); experiment: Two-electrode voltage clamp, Nav1.4 in Xenopus laevis oocytes; type: cell-based; design: key to effect on Nav1.4: “+” means tested and produced effect; “–“ means tested but no effect; conditions: S12A at 5 μM; Xenopus oocytes, n ≥ 3
T4 construct: expressed in transfected cells; host or cells: Xenopus laevis oocytes (cRNA injection)

hNav1.1 = biological target: T5, hNav1.1 (Homo sapiens, UniProt P35498); experiment: Two-electrode voltage clamp, Nav1.1 in Xenopus laevis oocytes; type: cell-based; design: key to effect on Nav1.1: “+” means tested and produced effect; “–“ means tested but no effect; conditions: S12A at 5 μM; Xenopus oocytes, n ≥ 3
T5 construct: expressed in transfected cells; host or cells: Xenopus laevis oocytes (cRNA injection)

SMILES	fold increase in EC50 on BgNav1 relative to alpha-1 (times lower activity) (BgNav1)	EC50 Artemia (Artemia salina)	effect on BgNav (BgNav1; S12A at 5 μM, Xenopus oocytes, n ≥ 3)	effect on Nav1.3 (rNaV1.3)	effect on Nav1.2 (rNaV1.2)	effect on Nav1.7 (hNav1.7)	effect on Nav1.4 (rNaV1.4)	effect on Nav1.1 (hNav1.1)
CC[C@H](C)[C@@H]1NC(=O)[C@@H](NC(=O)CN)CSSC[C@@H]2NC(=O)[C@@H]3CSSC[C@@H](C(=O)N[C@@H](CC(N)=O)C(=O)N4C[C@H](O)C[C@H]4C(=O)N4C[C@H](O)C[C@H]4C(=O)N[C@@H](CC(N)=O)C(=O)N[C@@H](CCC(N)=O)C(=O)O)NC(=O)[C@H](CCCCN)NC(=O)[C@H](Cc4ccccc4)NC(=O)[C@H](CC(N)=O)NC(=O)[C@H](Cc4c[nH]c5ccccc45)NC(=O)CNC(=O)[C@H](CSSC[C@H](NC(=O)[C@H](CCCCN)NC(=O)[C@H](CO)NC(=O)CNC(=O)[C@H]([C@@H](C)O)NC(=O)[C@H](C)NC1=O)C(=O)N[C@@H]([C@@H](C)O)C(=O)N[C@@H](CC(C)C)C(=O)N[C@@H](CO)C(=O)N[C@@H](CCCCN)C(=O)NCC(=O)N3)NC(=O)[C@H](CC(N)=O)NC(=O)[C@H](CCCCN)NC(=O)[C@H]([C@@H](C)O)NC2=O [Peptide F8K]	8.9 fold	inactive						
CC[C@H](C)[C@@H]1NC(=O)[C@@H](NC(=O)CN)CSSC[C@@H]2NC(=O)[C@@H]3CSSC[C@@H](C(=O)N[C@@H](CC(N)=O)C(=O)N4C[C@H](O)C[C@H]4C(=O)N4C[C@H](O)C[C@H]4C(=O)N[C@@H](CC(N)=O)C(=O)N[C@@H](CCC(N)=O)C(=O)O)NC(=O)[C@H](CCCCN)NC(=O)[C@H](Cc4ccccc4)NC(=O)[C@H](CC(N)=O)NC(=O)[C@H](Cc4c[nH]c5ccccc45)NC(=O)CNC(=O)[C@H](CSSC[C@H](NC(=O)[C@H](Cc4ccccc4)NC(=O)[C@H](CO)NC(=O)CNC(=O)[C@H]([C@@H](C)O)NC(=O)[C@H](C)NC1=O)C(=O)N[C@@H]([C@@H](C)O)C(=O)N[C@@H](CC(C)C)C(=O)N[C@@H](C)C(=O)N[C@@H](CCCCN)C(=O)NCC(=O)N3)NC(=O)[C@H](CC(N)=O)NC(=O)[C@H](CCCCN)NC(=O)[C@H]([C@@H](C)O)NC2=O [Peptide S12A]	33 fold and 28 fold		+	–	–	–	–	–

From article PMC12836348, “Alanine Mutagenesis Identifies Specific Amino Acids of Nemertide Alpha‑1 Activity and Its Binding to Target Receptors” (Journal of Natural Products, 2025)
